Assays:
[1] = biological target: T1, Histamine H4 receptor (Homo sapiens, UniProt Q9H3N8); assay: Displacement of [3H]histamine from human histamine H4 receptor
[2] = biological target: T1, Histamine H4 receptor; assay: Agonist activity at human histamine H4 receptor expressed in human SK-N-MC cells assessed as effect on forskolin-induced cAMP accumulation after 6 hrs; assay type: functional, cell-based
Outline: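 SK-N-MC cells with CRE-driven β-galactosidase reporter. Compound added to medium for 10 min at room temperature, then forskolin (5 µM final), 6 h at 37 °C. Chlorophenol red β-D-galactopyranoside substrate read at A570. α set against histamine (full agonist) = 1.0.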

By UniProt entry, the sequences of proteins in these tests, tags left out. Where a name states a change or a piece, a line headed by the entry shows the natural chain unless it says otherwise.
UniProt Q9H3N8: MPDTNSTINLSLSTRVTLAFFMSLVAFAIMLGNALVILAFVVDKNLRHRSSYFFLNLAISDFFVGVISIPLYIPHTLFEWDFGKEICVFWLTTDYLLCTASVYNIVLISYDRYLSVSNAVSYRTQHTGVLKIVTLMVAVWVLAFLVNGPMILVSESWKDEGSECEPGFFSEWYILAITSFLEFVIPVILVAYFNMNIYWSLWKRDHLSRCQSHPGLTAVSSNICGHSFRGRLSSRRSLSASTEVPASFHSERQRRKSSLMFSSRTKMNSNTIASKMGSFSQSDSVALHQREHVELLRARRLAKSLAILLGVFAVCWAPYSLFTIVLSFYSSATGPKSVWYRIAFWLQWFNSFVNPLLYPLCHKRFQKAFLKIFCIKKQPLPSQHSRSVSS

[3] = biological target: T1, Histamine H4 receptor; assay: Antagonist activity at human histamine H4 receptor expressed in human SK-N-MC cells assessed as inhibition of forskolin-stimulated cAMP accumulation after 6 hrs; assay type: functional, cell-based; conditions: read-out: pA2 (converted)
Outline: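 pA2 format on SK-N-MC cells carrying a CRE-controlled β-galactosidase reporter. Cells were preincubated with compound for 10 min, then with histamine agonist for 10 min, then forskolin was added, followed by 6 h at 37 °C. Lysis used phosphate/Mg/Mn buffer at pH 8 with Triton X-100 and β-mercaptoethanol. Chlorophenol red β-D-galactopyranoside turnover was read at 570 nm.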

## CN[C@@H]1CCN(c2cc(NCC(C)C)nc(N)n2)C1
[1]
  Ki: 4 nM
[2]
  EC50: > 10000 nM
[3]
  Kb: 0.501 nM
